Reference: US9924715B2, “Zinc or copper (II) salt and use thereof as a biocide” (LABORATORIYA BIO ZET, LLC, priority 2014, dated 2018)

Tested on: human immunodeficience virus (HIV)
Experiment: Virucidal activity, suspension test in vitro (MU 3.52431-08)
Format: cell-based
From the text: Virucidal activity of copper acrylate-propionate obtained as described in example 4 was investigated by analogy with examples 14-19.
Virucidal activity of zinc methacrylate-myristate obtained as described in example 11 was investigated by analogy with examples 14-19.

In the case of Zinc methacrylate-myristate, the “Degree of virus inhibition, lg TCID50” value (biocide 0.01 % in aqueous solution, exposure 30 min) was 0.5 lg TCID50, the “Degree of virus inhibition, lg TCID50” value (biocide 0.01 %, exposure 60 min) was 1.5 lg TCID50 and the “Degree of virus inhibition, lg TCID50” value (biocide 0.05 %, exposure 30 min) was 3.0 lg TCID50. For the same substance, the “Degree of virus inhibition, lg TCID50” value (biocide 0.05 %, exposure 60 min) was 4.5 lg TCID50, the “Degree of virus inhibition, lg TCID50” value (biocide 0.1 %, exposure 30 min) was 5.5 lg TCID50 and the “Degree of virus inhibition, lg TCID50” value (biocide 0.1 %, exposure 60 min) was 6.5 lg TCID50.
